Reference: ChEMBL document CHEMBL4385601, “Anti-Zika Activity of a Library of Synthetic Carbohydrate Receptors” (J Med Chem, 2019)
Active and inactive are the calls of the source. The rule behind the calls is not given here.

system: Zika virus; experiment: Antiviral activity against Zika virus harboring subgenomic GFP replicon infected in African green monkey Vero cells assessed as reduction in viral infection at 100 uM preincubated for 30 mins followed by viral infection and measured after 72 hrs; assay type: functional, organism-based

SMILES | Activity
[N-]=[N+]=NCc1cc(CN=[N+]=[N-])cc(-c2cc(CN=[N+]=[N-])cc(Cn3cc(COCCOCCOCCOCc4cn(Cc5cc(CN=[N+]=[N-])cc(-c6cc(CN=[N+]=[N-])cc(CN=[N+]=[N-])c6)c5)nn4)nn3)c2)c1 | Active
[N-]=[N+]=NCc1cc(CN=[N+]=[N-])cc(-c2cc(CN=[N+]=[N-])cc(Cn3cc(COCCOCc4cn(Cc5cc(CN=[N+]=[N-])cc(-c6cc(CN=[N+]=[N-])cc(CN=[N+]=[N-])c6)c5)nn4)nn3)c2)c1 | Active
[N-]=[N+]=NCc1cc(CN=[N+]=[N-])cc(-c2cc(CN=[N+]=[N-])cc(Cn3cc(COCCOCCOCCOCCOCCOCc4cn(Cc5cc(CN=[N+]=[N-])cc(-c6cc(CN=[N+]=[N-])cc(CN=[N+]=[N-])c6)c5)nn4)nn3)c2)c1 | Active
[N-]=[N+]=NCc1cc(CN=[N+]=[N-])cc(-c2cc(CN=[N+]=[N-])cc(CN=[N+]=[N-])c2)c1 | Active
